Patent US20220324835A1 (Nurix Therapeutics, Inc., priority 2018, published 2022)

Experiments:
[1] = tested on: in vitro generated exhausted human T-cells; experiment: Exhausted T-cell activation assessed by cytokine secretion (autologous SEB/myeloid cell model); conditions: exhausted T-cells stimulated with SEB and autologous myeloid cells, 3 days
[2] = tested on: in vitro generated exhausted human T-cells; conditions: exhausted T-cells stimulated with SEB and autologous myeloid cells; for CTLA4 CD4, fold change over baseline: CD4 T-cells; for CTLA4 CD8, fold change over baseline: CD8 T-cells

| Compound | Cytokines GM-CSF, fold change over baseline [1] | Cytokines IFNγ, fold change over baseline [1] | Cytokines IL-2, fold change over baseline [1] | CTLA4 CD4, fold change over baseline [2] | CTLA4 CD8, fold change over baseline [2] |
| --- | --- | --- | --- | --- | --- |
| Cc1cc2c(c(C3CC3)n1)CN(c1cccc([C@H](C)Cc3nncn3C)c1)C2=O [Compound 372, 4-cyclopropyl-6-methyl-2-{3-[(2R)-1-(4-methyl-4H-1,2,4-triazol-3-yl)propan-2-yl]phenyl}-1H,2H,3H-pyrrolo[3,4-c]pyridin-1-one] | A (A indicates ≤1.40) | A (A indicates ≤1.40) | A (A indicates ≤2.50) | A (A indicates ≤1.40) | A (A indicates ≤1.40) |
| Cn1cnnc1C(F)(F)[C@](C)(F)c1cccc(N2Cc3c(cc(C(=O)N4CC[C@H](O)C4)cc3C(F)(F)F)C2=O)c1 [Compound 438, 6-((S)-3-hydroxypyrrolidine-1-carbonyl)-2-(3-((R)-1,1,2-trifluoro-1-(4-methyl-4H-1,2,4-triazol-3-yl)propan-2-yl)phenyl)-4-(trifluoromethyl)isoindolin-1-one] | A (A indicates ≤1.40) | A (A indicates ≤1.40) | B (B indicates 2.51-3.00) | A (A indicates ≤1.40) | A (A indicates ≤1.40) |
| C[C@H](Cc1nncn1C)c1cccc(NC(=O)c2cccc(CCO)n2)c1 [Compound 202, 6-(2-hydroxyethyl)-N-[3-[(2R)-1-(4-methyl-4H-1,2,4-triazol-3-yl)propan-2-yl]phenyl]pyridine-2-carboxamide] | A (A indicates ≤1.40) | A (A indicates ≤1.40) | A (A indicates ≤2.50) | A (A indicates ≤1.40) | A (A indicates ≤1.40) |
| Cn1cnnc1CC1(c2cccc(NC(=O)c3cc(CN4CCC5(CC5)C4)cc(C4CC4)n3)c2)COC1 [Compound 519, 4-((5-azaspiro[2.4]heptan-5-yl)methyl)-6-cyclopropyl-N-(3-(3-((4-methyl-4H-1,2,4-triazol-3-yl)methyl)oxetan-3-yl)phenyl)picolinamide] | C (C indicates >1.61) | C (C indicates >1.61) | B (B indicates 2.51-3.00) | C (C indicates >1.61) | C (C indicates >1.61) |
